Source: PMC7180939, “Antiplasmodial Activity of p-Substituted Benzyl Thiazinoquinone Derivatives and Their Potential against Parasitic Infections” (Molecules, 2020)

Columns and labels:
[1] = tested on: embryonic murine fibroblasts (NIH-3T3 cell line); test: Cytotoxicity on NIH-3T3 cell line (previous work); assay type: cell-based; details: NIH-3T3 values from ref 8; for SI = IC50 NIH-3T3/IC50 P. falciparum strain, D10: NIH-3T3 vs D10; for SI = IC50 NIH-3T3/IC50 P. falciparum strain, W2: NIH-3T3 vs W2
[2] = tested on: human microvascular endothelial cells (HMEC-1); test: Cytotoxicity assay on HMEC-1 cell line; assay type: cell-based; details: for SI = IC50 HMEC-1/IC50 P. falciparum strain, D10: HMEC-1 vs D10; for SI = IC50 HMEC-1/IC50 P. falciparum strain, W2: HMEC-1 vs W2

Structure (SMILES) | SI = IC50 NIH-3T3/IC50 P. falciparum strain, D10 [1] | SI = IC50 NIH-3T3/IC50 P. falciparum strain, W2 [1] | SI = IC50 HMEC-1/IC50 P. falciparum strain, D10 [2] | SI = IC50 HMEC-1/IC50 P. falciparum strain, W2 [2]
COC1=C(Cc2ccc(Cl)cc2)C(=O)C2=C(NCCS2(=O)=O)C1=O [Compound 24] | 48.5 | 41.6 | 5.2 | 4.5
COC1=C(Cc2ccc(OC)cc2)C(=O)C2=C(NCCS2(=O)=O)C1=O [Compound 26] | – | – | 14.8 | 14.7
COC1=C(Cc2ccc(C(F)(F)F)cc2)C(=O)C2=C(NCCS2(=O)=O)C1=O [Compound 25] | 11.0 | 11.1 | 4.0 | 4.1
COC1=C(Cc2ccccc2)C(=O)C2=C(NCCS2(=O)=O)C1=O [Compound 22] | 147.7 | 126.5 | 29.3 | 25.2
COC1=C(Cc2ccc(OC(F)(F)F)cc2)C(=O)C2=C(NCCS2(=O)=O)C1=O [Compound 27] | 32.6 | 45.0 | 3.2 | 4.4
